Some peptides are written in HELM: one residue between dots, names in brackets for other building blocks, links after the first $.
Columns and labels:
[1] = general procedure: Fmoc solid-phase peptide synthesis; DMBHA resin; DIPCDI-HOBt; settings: whole synthesis, calculated based on the protecting group-protected polypeptide (1) resin, scale 0.2 mmol, acetic acid salt
[2] = general procedure: Fmoc solid-phase peptide synthesis; DMBHA resin (Fmoc-DMBHA-CH2CH2COOH on aminomethyl resin, 0.74 meq/g); DIPCDI-HOBt; settings: conjugation step, acetic acid salt

Row | Substance | isolated yield [1] [%] | conjugation yield [2] [%]
1 | PEPTIDE1{R.R.W.C.Y.R.K.[dK].P.Y.R.K.C.R.[am]}$PEPTIDE1,PEPTIDE1,4:R3-13:R3$$$V2.0 | 27 | 
2 | PEPTIDE1{[FTC].R.R.W.C.Y.R.K.[dK].P.Y.R.K.C.R.[am]}$PEPTIDE1,PEPTIDE1,5:R3-14:R3$$$V2.0 |  | 35

Source: US5776899A (Seikagaku Corporation, priority 1993, dated 1998)
